{"source": "PubChem BioAssay AID1259414 (Drosophila RNAi Screening Center, 2018)", "test": "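Fly genes that alter Wolbachia amount inside host cells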 (primary screen)", "system": "Drosophila JW18 cells infected with Wolbachia", "knock-down reagent": "long dsRNA against Drosophila genes, 0.25 µg dsRNA per well of a 384-well plate", "duration": "5 days", "conditions": "cells persistently infected with Wolbachia before knock-down; no added drug", "detection": "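Imaged fluorescence in situ signal for Wolbachia 23S rRNA per DAPI-counted host cell, given as a robust z-score within each plate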", "scale": "Wolbachia per cell robust z: higher = more Wolbachia per host cell than the plate typical", "call rule": "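Hit when robust z is 1.5 or more, or -1.5 or less, in at least two of three replicates; excludes dsRNAs with several or no targets, genes not expressed in JW18 and well A1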", "note": "The deposit covers about 24,000 reagents; this is a random part of those with a known target gene and a result. Of all reagents, about 1,210 (5%) are marked active. 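Inactive calls also include excluded dsRNAs with several or no targets, genes unexpressed in JW18, and well A1, regardless of score.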 Entries without a mark were called inactive. Names joined by + are all predicted targets of the reagent."}
{"Target gene": "Irc (GeneID 42049)", "dsRNA": "DRSC16454", "Wolbachia per cell robust z, rep 1": -0.0789, "Wolbachia per cell robust z, rep 2": 0.548, "Wolbachia per cell robust z, rep 3": 1.09}
{"Target gene": "Irc (GeneID 42049)", "dsRNA": "DRSC28100", "Wolbachia per cell robust z, rep 1": -0.352, "Wolbachia per cell robust z, rep 2": 0.0956, "Wolbachia per cell robust z, rep 3": -1.09}
{"Target gene": "ems (GeneID 41697)", "dsRNA": "DRSC25044", "Wolbachia per cell robust z, rep 1": -0.577, "Wolbachia per cell robust z, rep 2": -0.922, "Wolbachia per cell robust z, rep 3": -1.24}
{"Target gene": "CG42818 (GeneID 10178877)", "dsRNA": "DRSC01963", "Wolbachia per cell robust z, rep 1": 0.258, "Wolbachia per cell robust z, rep 2": 0.357, "Wolbachia per cell robust z, rep 3": 0.929}
{"Target gene": "sncRNA:430a + sncRNA:430f + His2A:CG33835 + 42 more", "dsRNA": "DRSC25850", "Wolbachia per cell robust z, rep 1": 3.63, "Wolbachia per cell robust z, rep 2": 6.1, "Wolbachia per cell robust z, rep 3": 8.99}
{"Target gene": "CG5618 (GeneID 40241)", "dsRNA": "DRSC11780", "Wolbachia per cell robust z, rep 1": 0.476, "Wolbachia per cell robust z, rep 2": -1.02, "Wolbachia per cell robust z, rep 3": -4.6}
{"Target gene": "CG5618 (GeneID 40241)", "dsRNA": "DRSC28806", "Wolbachia per cell robust z, rep 1": 0.885, "Wolbachia per cell robust z, rep 2": 1.17, "Wolbachia per cell robust z, rep 3": 0.479}
{"Target gene": "CG8248 (GeneID 35888)", "dsRNA": "DRSC07124", "Wolbachia per cell robust z, rep 1": 0.125, "Wolbachia per cell robust z, rep 2": 0.29, "Wolbachia per cell robust z, rep 3": 0.069}
{"Target gene": "inaF-A (GeneID 5740676)", "dsRNA": "DRSC19660", "Wolbachia per cell robust z, rep 1": 0.573, "Wolbachia per cell robust z, rep 2": -0.219, "Wolbachia per cell robust z, rep 3": 0.585}
{"Target gene": "Non2 (GeneID 38341)", "dsRNA": "DRSC08272", "Wolbachia per cell robust z, rep 1": -0.627, "Wolbachia per cell robust z, rep 2": -2.14, "Wolbachia per cell robust z, rep 3": 1.35}
{"Target gene": "Non2 (GeneID 38341)", "dsRNA": "DRSC25342", "Wolbachia per cell robust z, rep 1": -0.153, "Wolbachia per cell robust z, rep 2": 0.761, "Wolbachia per cell robust z, rep 3": -0.18}
{"Target gene": "Gr59c (GeneID 192481)", "dsRNA": "DRSC04185", "Wolbachia per cell robust z, rep 1": 0.134, "Wolbachia per cell robust z, rep 2": -5.35, "Wolbachia per cell robust z, rep 3": -0.539}
{"Target gene": "Gem3 (GeneID 39195)", "dsRNA": "DRSC11144", "Wolbachia per cell robust z, rep 1": 0.00467, "Wolbachia per cell robust z, rep 2": -0.00941, "Wolbachia per cell robust z, rep 3": -0.0673}
{"Target gene": "Tmem18 (GeneID 246418)", "dsRNA": "DRSC27312", "Wolbachia per cell robust z, rep 1": 0.407, "Wolbachia per cell robust z, rep 2": -0.643, "Wolbachia per cell robust z, rep 3": 0.083}
{"Target gene": "CG3916 (GeneID 41484)", "dsRNA": "DRSC15520", "Wolbachia per cell robust z, rep 1": 0.409, "Wolbachia per cell robust z, rep 2": -1.42, "Wolbachia per cell robust z, rep 3": 1.29}
{"Target gene": "CG3916 (GeneID 41484)", "dsRNA": "DRSC26907", "Wolbachia per cell robust z, rep 1": -0.191, "Wolbachia per cell robust z, rep 2": -0.0627, "Wolbachia per cell robust z, rep 3": -1.75}
{"Target gene": "Oseg1 (GeneID 38957)", "dsRNA": "DRSC10776", "Wolbachia per cell robust z, rep 1": 1.11, "Wolbachia per cell robust z, rep 2": 1.36, "Wolbachia per cell robust z, rep 3": 0.235}
{"Target gene": "CG13088 (GeneID 34180)", "dsRNA": "DRSC02192", "Wolbachia per cell robust z, rep 1": -3.13, "Wolbachia per cell robust z, rep 2": 0.306, "Wolbachia per cell robust z, rep 3": 0.58}
{"Target gene": "CG31121 (GeneID 42975)", "dsRNA": "DRSC15361", "Wolbachia per cell robust z, rep 1": -2.99, "Wolbachia per cell robust z, rep 2": -1.78, "Wolbachia per cell robust z, rep 3": 0.0257}
{"Target gene": "CG31121 (GeneID 42975)", "dsRNA": "DRSC15363", "Wolbachia per cell robust z, rep 1": 0.966, "Wolbachia per cell robust z, rep 2": 0.175, "Wolbachia per cell robust z, rep 3": 0.631}
{"Target gene": "CG15515 (GeneID 43538)", "dsRNA": "DRSC15054", "Wolbachia per cell robust z, rep 1": 0.876, "Wolbachia per cell robust z, rep 2": 0.532, "Wolbachia per cell robust z, rep 3": 0.114}
{"Target gene": "CG2100 (GeneID 40707)", "dsRNA": "DRSC12303", "Wolbachia per cell robust z, rep 1": -2.27, "Wolbachia per cell robust z, rep 2": 0.599, "Wolbachia per cell robust z, rep 3": 0.538}
{"Target gene": "side-VI (GeneID 4379854)", "dsRNA": "DRSC14920", "Wolbachia per cell robust z, rep 1": -3.39, "Wolbachia per cell robust z, rep 2": -0.0707, "Wolbachia per cell robust z, rep 3": -0.395}
{"Target gene": "side-VI (GeneID 4379854)", "dsRNA": "DRSC23088", "Wolbachia per cell robust z, rep 1": 0.201, "Wolbachia per cell robust z, rep 2": -1.8, "Wolbachia per cell robust z, rep 3": 0.89}
{"Target gene": "side-VI (GeneID 4379854)", "dsRNA": "DRSC28883", "Wolbachia per cell robust z, rep 1": 0.525, "Wolbachia per cell robust z, rep 2": -0.313, "Wolbachia per cell robust z, rep 3": -0.509}

Single entries from above:
For “Wolbachia per cell robust z, rep 1”, CG42818 (GeneID 10178877) [DRSC01963] has 0.258
CG13088 (GeneID 34180) [DRSC02192], Wolbachia per cell robust z, rep 3: 0.58
